Measured values from several laboratories, pooled; numbers as filed in NIAID ChemDB.

Shared fields: tests in culture; organism: Haemophilus influenzae; endpoint: MIC

Rows are shuffled and stem from different studies.

compound | strain | value
CC[C@H]1OC(=O)C[C@@H](O)[C@H](C)[C@@H](O[C@@H]2O[C@H](C)[C@@H](O)[C@H](N(C)C)[C@H]2O)C(C=O)C[C@@H](C)C(=O)/C=C/C(C)=C/[C@@H]1COC | 33929 (ampicillin-resistant) | 2 µg/mL
O=CN(O)CCCP(=O)(O)O | ATCC31517 | ≤1 µg/mL
CC[C@H]1OC(=O)[C@H](C)C(=O)[C@H](C)[C@@H](O[C@@H]2O[C@H](C)C[C@H](N(C)C)[C@H]2O)[C@@]2(C)C[C@@H](C)C(=NC(C)=O)[C@H](C)[C@@H](OC/C(=N\OCCc3ccccc3)CO2)[C@]1(C)O | 33929 (ampicillin-resistant) | 32 µg/mL
CC[C@H]1OC(=O)[C@H](C)[C@@H](O[C@H]2C[C@@](C)(OC)[C@@H](O)[C@H](C)O2)[C@H](C)[C@@H](O[C@H]2O[C@@H](C)C[C@@H](N(C)C)[C@@H]2O)[C@](C)(O)C[C@@H](C)C(=O)[C@H](C)[C@@H](O)[C@]1(C)O | 33929 (ampicillin-resistant) | 4 µg/mL
CC(=O)NC[C@H]1CN(c2ccc(-c3ccn(CC#N)n3)c(F)c2)C(=O)O1 | UC 30063 | 32 µg/mL
CC[C@H]1OC(=O)[C@H](C)C(=O)[C@H](C)[C@@H](O[C@@H]2O[C@H](C)C[C@H](N(C)C)[C@H]2O)[C@@]2(C)C[C@@H](C)C(=NC(C)=O)[C@H](C)C(OC/C(=N\OCc3ccccc3)CO2)[C@]1(C)O | 33929 (ampicillin-resistant) | 8 µg/mL
CC(=O)NC[C@H]1CN(c2ccc(-c3cncs3)c(F)c2)C(=O)O1 | UC 30063 | 4 µg/mL
CC[C@H]1OC(=O)C[C@@H](O)[C@H](C)[C@@H](O[C@@H]2O[C@H](C)[C@@H](O)[C@H](N(C)C)[C@H]2O)C(C=O)C[C@@H](C)C(=O)/C=C/C(C)=C/[C@@H]1COC(=O)Nc1ccc(Cl)cc1 | 33929 (ampicillin-resistant) | 1 µg/mL
CC[C@H]1OC(=O)[C@@](C)(F)C(=O)[C@H](C)[C@@H](O[C@@H]2O[C@H](C)C[C@H](N(C)C)[C@H]2O)[C@@]2(C)C[C@@H](C)C(=N)[C@H](C)[C@@H](OC/C(=N\OCc3ccc(-c4nccs4)nc3)CO2)[C@]1(C)O | 33929 (ampicillin-resistant) | 4 µg/mL
CC[C@H]1OC(=O)[C@H](C)C(=O)[C@H](C)[C@@H](O[C@@H]2O[C@H](C)C[C@H](N(C)C)[C@H]2O)[C@@]2(C)C[C@@H](C)C(=NC(C)=O)[C@H](C)[C@@H](OC/C(=N\Oc3ccc(-c4cnccn4)s3)CO2)[C@]1(C)O | 33929 (ampicillin-resistant) | 4 µg/mL
C=CCn1cc(-c2ccc(N3C[C@H](CNC(C)=O)OC3=O)cc2F)cn1 | UC 30063 | >16 µg/mL
CC[C@H]1OC(=O)[C@@](C)(F)C(=O)[C@H](C)[C@@H](O[C@@H]2O[C@H](C)C[C@H](N(C)C)[C@H]2O)[C@@]2(C)C[C@@H](C)C(=NC(C)=O)[C@H](C)[C@@H](OC/C(=N\OCc3ccc(-c4nccs4)nc3)CO2)[C@]1(C)O | 33929 (ampicillin-resistant) | 4 µg/mL
CC[C@H]1OC(=O)[C@H](C)C(=O)[C@H](C)[C@@H](O[C@@H]2O[C@H](C)C[C@H](N(C)C)[C@H]2O)[C@@]2(C)C[C@@H](C)C(=NC(C)=O)[C@H](C)[C@@H](OC/C(=N\Oc3ccc(-c4nccs4)nc3)CO2)[C@]1(C)O | 33929 (ampicillin-resistant) | 4 µg/mL
CC(=O)NC[C@H]1CN(c2ccc(-c3cnn(C(c4ccccc4)(c4ccccc4)c4ccccc4)c3)c(F)c2)C(=O)O1 | UC 30063 | >32 µg/mL
CC[C@H]1OC(=O)[C@@](C)(F)C(=O)[C@H](C)[C@@H](O[C@@H]2O[C@H](C)C[C@H](N(C)C)[C@H]2O)[C@@]2(C)C[C@@H](C)C(=NC(C)=O)[C@H](C)[C@@H](OC/C(=N\OCc3ccc(N)nc3)CO2)[C@]1(C)O | 33929 (ampicillin-resistant) | 2 µg/mL
CC[C@H]1OC(=O)[C@H](C)C(=O)[C@H](C)[C@@H](O[C@@H]2O[C@H](C)C[C@H](N(C)C)[C@H]2O)[C@](C)(OC)C[C@@H](C)C(=O)[C@H](C)[C@H]2N(CCCCn3cnc(-c4cccnc4)c3)C(=O)O[C@]12C | 33929 (ampicillin-resistant) | 2 µg/mL
CC[C@H]1OC(=O)[C@@](C)(F)C(=O)[C@H](C)[C@@H](O[C@@H]2O[C@H](C)C[C@H](N(C)C)[C@H]2O)[C@@]2(C)C[C@@H](C)C(=NC(C)=O)[C@H](C)[C@@H](OC/C(=N\OCc3ccc(-c4csnn4)nc3)CO2)[C@]1(C)O | 33929 (ampicillin-resistant) | 4 µg/mL
CC[C@H]1OC(=O)[C@H](C)C(=O)[C@H](C)[C@@H](O[C@@H]2O[C@H](C)C[C@H](N(C)C)[C@H]2O)[C@@]2(C)C[C@@H](C)C(=NC(C)=O)[C@H](C)[C@@H](OC/C(=N\OCC#Cc3ncccn3)CO2)[C@]1(C)O | 33929 (ampicillin-resistant) | 8 µg/mL
CC[C@H]1OC(=O)[C@@](C)(F)C(=O)[C@H](C)[C@@H](O[C@@H]2O[C@H](C)C[C@H](N(C)C)[C@H]2O)[C@@]2(C)C[C@@H](C)C(=NC(C)=O)[C@H](C)[C@@H](OC/C(=N\OCc3ccc(-n4cccn4)nc3)CO2)[C@]1(C)O | 33929 (ampicillin-resistant) | 4 µg/mL
CC[C@H]1OC(=O)[C@H](C)[C@@H](O[C@H]2C[C@@](C)(OC)[C@@H](O)[C@H](C)O2)[C@H](C)[C@@H](O[C@H]2O[C@@H](C)C[C@@H](N(C)C)[C@@H]2O)[C@](C)(O)C[C@@H](C)C(=O)[C@H](C)[C@@H](O)[C@]1(C)O | 33929 (ampicillin-resistant) | 4 µg/mL
CC[C@H]1OC(=O)[C@@](C)(F)C(=O)[C@H](C)[C@@H](O[C@@H]2O[C@H](C)C[C@H](N(C)C)[C@H]2O)[C@@]2(C)C[C@@H](C)C(=NC(C)=O)[C@H](C)[C@@H](OC/C(=N\OCC#Cc3cccc(N)n3)CO2)[C@]1(C)O | 33929 (ampicillin-resistant) | 4 µg/mL
CC[C@H]1OC(=O)C[C@@H](O)[C@H](C)[C@@H](O[C@@H]2O[C@H](C)[C@@H](O)[C@H](N(C)C)[C@H]2O)C(C=O)C[C@@H](C)C(=O)/C=C/C(C)=C/[C@@H]1COC(N)=O | 33929 (ampicillin-resistant) | 2 µg/mL

For reference, 3 entries again:

compound	strain	value
CC(=O)NC[C@H]1CN(c2ccc(-c3cncs3)c(F)c2)C(=O)O1	UC 30063	4 µg/mL
CC[C@H]1OC(=O)C[C@@H](O)[C@H](C)[C@@H](O[C@@H]2O[C@H](C)[C@@H](O)[C@H](N(C)C)[C@H]2O)C(C=O)C[C@@H](C)C(=O)/C=C/C(C)=C/[C@@H]1COC(=O)Nc1ccc(Cl)cc1	33929 (ampicillin-resistant)	1 µg/mL
CC(=O)NC[C@H]1CN(c2ccc(-c3cnn(C(c4ccccc4)(c4ccccc4)c4ccccc4)c3)c(F)c2)C(=O)O1	UC 30063	>32 µg/mL